Data source: PubChem BioAssay AID1224833 (University of Georgia, 2016)

Test: 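Human genes whose knock-down alters rotavirus replication in monkey cells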 (primary screen)
System: monkey MA104 kidney cells
Reagents: siRNA pool against human genes, 50 nM
Time to read-out: 48 h knock-down before infection; read 24 h after infection
Conditions: infection with rotavirus strain RV3 two days after transfection; infectious dose for this stage not given
Detection: 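z-score of rotavirus antigen signal per well, from a fluorescent immunoassay, relative to non-targeting control wells on the same plate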
Reading the numbers: z-score vs non-targeting control: higher = more rotavirus replication than with non-targeting control
Rule for the call: In these data the active calls have z-score vs non-targeting control at about -1 or lower, or at about 1 or higher
Calls: active = z-score beyond 1 either way; inactive = z-score within 1 of zero
The whole screen tested about 12,000 reagents; below is a part drawn at random. About 5,600 of them (46%) were called active. 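Active calls cover z-scores past 1 in both directions, so they include lowered as well as raised rotavirus replication.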 Reagent sequences are not shown.

target | z-score vs non-targeting control | Outcome
TAS2R40 | -0.854 | inactive
BARX1 | -1.97 | active
KRTAP3-3 | -2.36 | active
EIF5B | 0.5 | inactive
SWAP70 | 0.492 | inactive
KLHDC3 | -0.375 | inactive
RAB5A | 0.644 | inactive
STEAP3 | -0.882 | inactive
NIPSNAP2 | 0.312 | inactive
LSM8 | 0.251 | inactive
ULBP3 | -0.361 | inactive
PRPF6 | 0.246 | inactive
ASCL2 | -0.162 | inactive
MGAT1 | 2.04 | active
TOMM40L | -0.525 | inactive
CTNNB1 | -0.823 | inactive
MRPS7 | 0.509 | inactive
MACROD2 | -1.41 | active
C2CD2 | 0.135 | inactive
DCLRE1A | -1.52 | active
CELF4 | -1.21 | active
H2BC21 | -0.616 | inactive
RASGRP2 | 0.96 | inactive
ATAD3A | -1.39 | active
SNX29 | -1.69 | active
TLE2 | -0.541 | inactive
MYOM2 | -0.515 | inactive
OSTF1 | 1.8 | active
CD22 | -3.14 | active
ZNF318 | -0.573 | inactive
MIER1 | 0.997 | inactive
EIF5A2 | -1.74 | active
SLC3A2 | -0.744 | inactive
ECM1 | 1.7 | active
STX1A | -1.19 | active
CLRN1 | 1.52 | active
MDGA1 | -0.452 | inactive
TBC1D10C | -0.0407 | inactive
STAT2 | -0.561 | inactive
ATP6V0E1 | -1.74 | active

Records listed so far marked active (15):
target | z-score vs non-targeting control | Outcome
BARX1 | -1.97 | active
KRTAP3-3 | -2.36 | active
MGAT1 | 2.04 | active
MACROD2 | -1.41 | active
DCLRE1A | -1.52 | active
CELF4 | -1.21 | active
ATAD3A | -1.39 | active
SNX29 | -1.69 | active
OSTF1 | 1.8 | active
CD22 | -3.14 | active
EIF5A2 | -1.74 | active
ECM1 | 1.7 | active
STX1A | -1.19 | active
CLRN1 | 1.52 | active
ATP6V0E1 | -1.74 | active

Additional reagents follow.
target | z-score vs non-targeting control | Outcome
IRF2BP2 | 1.92 | active
CAMSAP1 | 0.79 | inactive
LSM14A | 2.34 | active
CCDC144NL | 1.14 | active
DECR1 | -1.59 | active
OR4K13 | -1.13 | active
CRABP1 | 0.758 | inactive
TTC4 | 0.621 | inactive
MAL2 | -0.0601 | inactive
S100A4 | -2.6 | active
CD8B | -0.59 | inactive
SPINK13 | -2.53 | active
RTL4 | 1.02 | active
RGS12 | 1.75 | active
GPR137B | -1.82 | active
TYMS | -0.702 | inactive
NAA38 | -0.917 | inactive
GNG12 | 0.0757 | inactive
PLXND1 | 1.6 | active
AGAP7P | -1.03 | active
ABRA | -0.669 | inactive
SIPA1 | -1.41 | active
CBX3 | 0.758 | inactive
TKT | -1.23 | active
CRLS1 | -1.08 | active
ENTPD5 | -1.19 | active
PIP | -0.153 | inactive
TP53AIP1 | 1.27 | active
PCDH1 | 0.242 | inactive
MYO1C | -0.251 | inactive
AMPH | 0.296 | inactive
CCL28 | -0.149 | inactive
RS1 | -2.5 | active
NREP | -0.618 | inactive
CBFA2T2 | -1.98 | active
KLHDC4 | 1.2 | active
PIGW | -0.513 | inactive
HEY2 | 0.563 | inactive
PCSK9 | 1.86 | active
PRSS1 | 1.45 | active
H3C3 | 0.25 | inactive
TSPYL6 | -1.88 | active
UBAP1 | -0.146 | inactive
PCDHGB1 | 0.123 | inactive
LYPD2 | -0.201 | inactive
PDE3B | -1.01 | active
CAPN2 | -0.97 | inactive
MMP23B | -0.693 | inactive
VGLL2 | -2.34 | active
PJVK | -1.29 | active
NMRK1 | 0.151 | inactive
CTR9 | -0.0595 | inactive
TM9SF1 | 0.28 | inactive
TRA2A | -0.573 | inactive
PSMB1 | -2.04 | active
HNF1B | -4.17 | active
CLPX | 1.96 | active
ZNF468 | 1.79 | active
PYCARD | -1.16 | active
SPAG5 | 0.0754 | inactive
JPT2 | 0.577 | inactive
IVL | 0.79 | inactive
ADGRE3 | 1.32 | active
GGA3 | -1.25 | active
AMMECR1 | -2.38 | active
SMCR8 | -2.3 | active
REEP4 | -0.632 | inactive
TCIRG1 | -2.25 | active
ESPL1 | 2.04 | active
RGPD2 | -1.64 | active
